Anti-infective test results gathered from many reports (values: NIAID ChemDB through PubChem).

Common to all: whole-cell or culture tests; organism: Candida dubliniensis

ECn is the concentration giving n% inhibition of infection, replication or growth. Conditions beyond the fields shown may differ between rows. Two numbers with a dash give a range or band. A number after MIC or MFC names an inhibition level or a share of isolates. Blank or dashed fields: not listed here.

| compound | strain | method | endpoint | result |
|---|---|---|---|---|
| CCCCCOc1ccc(-c2ccc(-c3ccc(C(=O)N[C@H]4C[C@@H](O)[C@@H](O)NC(=O)[C@@H]5[C@@H](O)[C@@H](C)CN5C(=O)[C@H]([C@H](C)O)NC(=O)[C@H]([C@H](O)[C@@H](O)c5ccc(O)cc5)NC(=O)[C@@H]5C[C@@H](O)CN5C(=O)[C@H]([C@H](C)O)NC4=O)cc3)cc2)cc1 |  |  | MIC50 | 0.015–0.25 µg/mL |
| CCOC(=O)C1C(=O)C=C(c2ccc(F)cc2)CC1c1ccc(C2CC(c3ccc(F)cc3)=CC(=O)C2C(=O)OCC)cc1 | Clinical isolate |  | MIC | 25 µg/mL |
| CCCCCOc1ccc(-c2cc(-c3ccc(C(=O)N[C@H]4C[C@@H](O)[C@@H](O)NC(=O)[C@@H]5[C@@H](O)[C@@H](C)CN5C(=O)[C@H]([C@H](O)CC(N)=O)NC(=O)[C@H]([C@H](O)[C@@H](O)c5ccc(O)c(OS(=O)(=O)O)c5)NC(=O)[C@@H]5C[C@@H](O)CN5C(=O)[C@H]([C@@H](C)O)NC4=O)cc3)no2)cc1 |  | broth dilution | MIC50 | 0.06 µg/mL |
| Clc1ccc(C(c2ccccc2)n2ccnc2)cc1 |  | broth dilution | MFC | 16 µg/mL |
| CC(C)S(=O)(=O)N1CCN(c2cnn(-c3cc(F)cc(F)c3)c(=O)c2OC2CCC(F)C2)CC1 | C345 | broth dilution | MIC | 0.5 µg/mL |
| CC(C)CC(O)C(=O)O | EO 323 | broth dilution | EC50 | 18000 µg/mL |
| O=C(c1ccccc1)C(c1ccccc1)n1nnc2ccccc21 |  | broth dilution | MFC | >256 µg/mL |
| CCOC(=O)C1C(=O)C=C(c2ccc(Br)cc2)CC1c1ccc(C2CC(c3ccc(Br)cc3)=CC(=O)C2C(=O)OCC)cc1 | Clinical isolate |  | MIC | 12.5 µg/mL |
| CCC(C)n1ncn(-c2ccc(N3CCN(c4ccc(OC[C@H]5CO[C@](Cn6cncn6)(c6ccc(Cl)cc6Cl)O5)cc4)CC3)cc2)c1=O |  | broth dilution | MIC50 | 0.016 µg/mL |
| Clc1ccc(C(c2ccccc2)N2CCN(CCn3ccnc3)CC2)cc1 |  | broth dilution | MFC | >256 µg/mL |
| CC(C)CC(=O)C(=O)O | T-98 QC2000 | broth dilution | MFC100 | >72000 µg/mL |
| CCOC(=O)C1C(=O)C=C(c2ccc(Cl)cc2)CC1c1ccc(C2CC(c3ccc(Cl)cc3)=CC(=O)C2C(=O)OCC)cc1 | Clinical isolate |  | MIC | 6.25 µg/mL |
| COC(=O)c1ccc(C[C@H](C(=O)OC)[C@@H](O)C(=O)OC)cc1 | CBS 7987 |  | MIC | 2 µg/mL |
| C[C@H]1[C@H](O)[C@@H](C)/C=C/C=C/C=C/C=C/C=C/C=C/C=C/[C@H](O[C@@H]2O[C@H](C)[C@@H](O)[C@H](N)[C@@H]2O)C[C@@H]2O[C@](O)(C[C@@H](O)C[C@@H](O)CC[C@H](O)[C@@H](O)C[C@@H](O)CC(=O)O[C@H]1C)C[C@H](O)[C@H]2C(=O)O | ATCC MAY 646 | broth dilution / absorbance | MIC99 | 0.39 µM |